Results published in ChEMBL document CHEMBL5034007, “Discovery of Methylene Thioacetal-Incorporated α-RgIA Analogues as Potent and Stable Antagonists of the Human α9α10 Nicotinic Acetylcholine Receptor for the Treatment of Neuropathic Pain” (2021).

Sequences of proteins named here, by UniProt entry; tags and fusion partners are left off. A change or cut given only in a name is not applied to a line headed by its entry.
UniProt P22303: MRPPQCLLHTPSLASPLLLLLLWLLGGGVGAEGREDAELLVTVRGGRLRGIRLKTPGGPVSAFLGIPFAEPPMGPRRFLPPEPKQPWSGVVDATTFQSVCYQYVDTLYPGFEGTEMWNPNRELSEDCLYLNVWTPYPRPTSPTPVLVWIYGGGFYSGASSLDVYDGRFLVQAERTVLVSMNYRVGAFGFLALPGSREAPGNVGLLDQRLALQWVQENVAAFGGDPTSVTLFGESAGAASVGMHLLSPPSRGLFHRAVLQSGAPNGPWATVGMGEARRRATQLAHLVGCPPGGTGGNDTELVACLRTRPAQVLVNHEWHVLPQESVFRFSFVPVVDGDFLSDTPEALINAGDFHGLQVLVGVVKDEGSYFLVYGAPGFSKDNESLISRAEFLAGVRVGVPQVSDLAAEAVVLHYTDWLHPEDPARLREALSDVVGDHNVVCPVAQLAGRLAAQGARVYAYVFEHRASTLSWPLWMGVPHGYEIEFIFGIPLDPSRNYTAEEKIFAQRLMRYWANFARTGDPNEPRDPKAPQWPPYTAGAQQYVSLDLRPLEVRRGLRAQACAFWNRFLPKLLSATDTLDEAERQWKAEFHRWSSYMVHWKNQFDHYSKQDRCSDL
UniProt P32241, whole entry, looked up: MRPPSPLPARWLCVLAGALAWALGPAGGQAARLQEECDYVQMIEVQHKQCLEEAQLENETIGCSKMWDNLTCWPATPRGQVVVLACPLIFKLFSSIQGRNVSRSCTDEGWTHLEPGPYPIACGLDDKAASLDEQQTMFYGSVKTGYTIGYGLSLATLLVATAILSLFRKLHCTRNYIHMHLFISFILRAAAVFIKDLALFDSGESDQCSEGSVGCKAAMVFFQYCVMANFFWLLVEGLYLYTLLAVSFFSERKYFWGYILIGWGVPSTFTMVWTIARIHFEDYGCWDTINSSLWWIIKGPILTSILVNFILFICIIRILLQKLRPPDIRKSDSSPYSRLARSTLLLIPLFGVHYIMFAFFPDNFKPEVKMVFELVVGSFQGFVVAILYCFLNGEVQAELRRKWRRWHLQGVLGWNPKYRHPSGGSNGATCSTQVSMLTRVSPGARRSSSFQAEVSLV
UniProt P19492: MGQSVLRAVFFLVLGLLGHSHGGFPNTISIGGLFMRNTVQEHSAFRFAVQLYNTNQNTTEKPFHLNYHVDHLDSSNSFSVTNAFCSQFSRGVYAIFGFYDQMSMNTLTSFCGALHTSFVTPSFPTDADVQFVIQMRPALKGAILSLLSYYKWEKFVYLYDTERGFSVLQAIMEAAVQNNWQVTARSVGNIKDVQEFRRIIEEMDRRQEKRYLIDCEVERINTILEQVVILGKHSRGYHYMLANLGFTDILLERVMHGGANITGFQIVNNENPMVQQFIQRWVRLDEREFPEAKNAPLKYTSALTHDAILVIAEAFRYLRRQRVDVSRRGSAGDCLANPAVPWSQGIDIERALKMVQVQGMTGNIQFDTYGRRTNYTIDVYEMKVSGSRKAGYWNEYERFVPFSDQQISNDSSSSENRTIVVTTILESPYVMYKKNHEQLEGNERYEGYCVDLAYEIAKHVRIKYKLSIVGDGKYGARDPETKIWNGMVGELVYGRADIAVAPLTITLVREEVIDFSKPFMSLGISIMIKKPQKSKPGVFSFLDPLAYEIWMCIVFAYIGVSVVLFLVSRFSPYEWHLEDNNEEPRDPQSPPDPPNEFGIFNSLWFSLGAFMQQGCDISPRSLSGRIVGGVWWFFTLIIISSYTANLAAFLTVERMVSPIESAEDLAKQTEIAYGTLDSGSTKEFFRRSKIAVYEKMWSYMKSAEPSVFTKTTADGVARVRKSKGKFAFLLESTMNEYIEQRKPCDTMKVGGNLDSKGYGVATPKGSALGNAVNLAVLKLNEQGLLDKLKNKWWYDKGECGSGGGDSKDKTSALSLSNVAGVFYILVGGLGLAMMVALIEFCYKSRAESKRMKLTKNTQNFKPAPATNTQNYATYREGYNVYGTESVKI
UniProt P19490: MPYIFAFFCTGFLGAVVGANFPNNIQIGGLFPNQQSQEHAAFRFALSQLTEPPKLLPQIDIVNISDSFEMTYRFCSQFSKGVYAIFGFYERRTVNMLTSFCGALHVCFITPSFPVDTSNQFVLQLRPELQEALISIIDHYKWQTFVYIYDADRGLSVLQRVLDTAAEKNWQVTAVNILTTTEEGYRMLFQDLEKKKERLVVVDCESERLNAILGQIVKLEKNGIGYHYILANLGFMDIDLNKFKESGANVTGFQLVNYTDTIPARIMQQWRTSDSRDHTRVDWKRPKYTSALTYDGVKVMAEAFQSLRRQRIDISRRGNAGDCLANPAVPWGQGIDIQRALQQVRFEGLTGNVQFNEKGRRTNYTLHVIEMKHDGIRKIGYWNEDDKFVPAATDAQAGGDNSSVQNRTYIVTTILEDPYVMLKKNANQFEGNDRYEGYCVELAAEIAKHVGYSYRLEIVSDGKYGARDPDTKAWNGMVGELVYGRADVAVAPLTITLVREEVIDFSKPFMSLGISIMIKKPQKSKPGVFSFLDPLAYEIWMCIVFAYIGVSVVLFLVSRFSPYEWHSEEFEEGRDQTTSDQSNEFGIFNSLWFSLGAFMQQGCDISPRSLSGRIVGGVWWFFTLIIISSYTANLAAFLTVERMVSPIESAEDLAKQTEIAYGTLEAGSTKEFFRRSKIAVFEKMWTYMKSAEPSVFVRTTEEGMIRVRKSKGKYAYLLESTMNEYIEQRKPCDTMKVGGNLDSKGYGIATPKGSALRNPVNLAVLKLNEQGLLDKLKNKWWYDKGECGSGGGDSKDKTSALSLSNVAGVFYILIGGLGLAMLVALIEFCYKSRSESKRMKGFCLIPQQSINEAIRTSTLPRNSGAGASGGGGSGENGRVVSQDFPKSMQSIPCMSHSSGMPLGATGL
UniProt P21452, whole entry, looked up: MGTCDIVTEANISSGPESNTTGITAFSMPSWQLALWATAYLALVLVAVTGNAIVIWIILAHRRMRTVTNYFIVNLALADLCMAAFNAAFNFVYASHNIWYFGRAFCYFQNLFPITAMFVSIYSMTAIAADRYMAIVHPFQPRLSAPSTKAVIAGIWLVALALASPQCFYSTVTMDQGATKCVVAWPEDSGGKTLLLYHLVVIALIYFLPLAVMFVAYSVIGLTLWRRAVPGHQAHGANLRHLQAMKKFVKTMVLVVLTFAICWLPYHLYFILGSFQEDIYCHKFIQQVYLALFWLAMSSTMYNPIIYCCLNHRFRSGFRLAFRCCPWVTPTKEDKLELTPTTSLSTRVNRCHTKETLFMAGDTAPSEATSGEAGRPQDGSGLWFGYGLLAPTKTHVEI
UniProt P36544, whole entry, looked up: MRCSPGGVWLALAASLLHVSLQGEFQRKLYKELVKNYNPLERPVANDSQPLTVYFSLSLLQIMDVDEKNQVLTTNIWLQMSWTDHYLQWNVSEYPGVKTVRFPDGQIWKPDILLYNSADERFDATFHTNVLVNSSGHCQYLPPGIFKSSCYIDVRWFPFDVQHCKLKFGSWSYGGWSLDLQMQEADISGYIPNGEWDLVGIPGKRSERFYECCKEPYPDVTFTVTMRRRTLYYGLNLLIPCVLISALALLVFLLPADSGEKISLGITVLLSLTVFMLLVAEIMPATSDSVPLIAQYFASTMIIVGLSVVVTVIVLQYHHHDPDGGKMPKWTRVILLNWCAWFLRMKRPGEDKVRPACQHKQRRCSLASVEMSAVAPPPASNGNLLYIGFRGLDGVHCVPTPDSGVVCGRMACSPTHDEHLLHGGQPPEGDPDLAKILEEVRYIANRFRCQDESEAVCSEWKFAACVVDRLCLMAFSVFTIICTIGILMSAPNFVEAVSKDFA
UniProt P08172, whole entry, looked up: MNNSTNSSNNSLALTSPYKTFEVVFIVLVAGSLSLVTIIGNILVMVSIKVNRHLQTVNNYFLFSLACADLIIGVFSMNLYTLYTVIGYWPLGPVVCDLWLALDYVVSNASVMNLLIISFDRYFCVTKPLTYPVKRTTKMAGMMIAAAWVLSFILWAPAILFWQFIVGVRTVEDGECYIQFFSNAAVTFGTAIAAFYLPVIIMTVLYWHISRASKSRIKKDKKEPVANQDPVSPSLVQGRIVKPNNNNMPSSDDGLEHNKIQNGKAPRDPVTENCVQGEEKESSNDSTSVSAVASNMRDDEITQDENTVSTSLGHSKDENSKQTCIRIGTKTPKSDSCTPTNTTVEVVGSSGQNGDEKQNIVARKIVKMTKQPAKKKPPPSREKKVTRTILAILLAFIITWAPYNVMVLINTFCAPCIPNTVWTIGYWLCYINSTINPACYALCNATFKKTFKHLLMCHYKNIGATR
UniProt P28329: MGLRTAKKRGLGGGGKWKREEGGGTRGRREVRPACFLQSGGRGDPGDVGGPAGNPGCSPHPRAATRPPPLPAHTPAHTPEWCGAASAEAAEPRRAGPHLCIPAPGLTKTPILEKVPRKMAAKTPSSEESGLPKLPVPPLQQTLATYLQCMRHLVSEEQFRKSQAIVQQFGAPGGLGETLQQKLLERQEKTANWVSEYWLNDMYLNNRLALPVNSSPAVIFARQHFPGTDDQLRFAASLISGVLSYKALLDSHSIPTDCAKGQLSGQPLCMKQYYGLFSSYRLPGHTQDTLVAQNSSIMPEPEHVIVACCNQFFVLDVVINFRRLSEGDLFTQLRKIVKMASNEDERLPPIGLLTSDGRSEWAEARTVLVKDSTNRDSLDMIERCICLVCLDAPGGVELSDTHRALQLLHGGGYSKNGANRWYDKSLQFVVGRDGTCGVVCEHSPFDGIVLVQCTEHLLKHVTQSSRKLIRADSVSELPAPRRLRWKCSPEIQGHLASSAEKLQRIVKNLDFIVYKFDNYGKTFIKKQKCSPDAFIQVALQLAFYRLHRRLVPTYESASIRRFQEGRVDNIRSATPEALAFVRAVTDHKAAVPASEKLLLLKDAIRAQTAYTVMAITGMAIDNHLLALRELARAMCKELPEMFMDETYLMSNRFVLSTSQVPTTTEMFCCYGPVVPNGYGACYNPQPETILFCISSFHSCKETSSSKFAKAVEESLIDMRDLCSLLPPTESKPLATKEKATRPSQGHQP
UniProt P21917, whole entry, looked up: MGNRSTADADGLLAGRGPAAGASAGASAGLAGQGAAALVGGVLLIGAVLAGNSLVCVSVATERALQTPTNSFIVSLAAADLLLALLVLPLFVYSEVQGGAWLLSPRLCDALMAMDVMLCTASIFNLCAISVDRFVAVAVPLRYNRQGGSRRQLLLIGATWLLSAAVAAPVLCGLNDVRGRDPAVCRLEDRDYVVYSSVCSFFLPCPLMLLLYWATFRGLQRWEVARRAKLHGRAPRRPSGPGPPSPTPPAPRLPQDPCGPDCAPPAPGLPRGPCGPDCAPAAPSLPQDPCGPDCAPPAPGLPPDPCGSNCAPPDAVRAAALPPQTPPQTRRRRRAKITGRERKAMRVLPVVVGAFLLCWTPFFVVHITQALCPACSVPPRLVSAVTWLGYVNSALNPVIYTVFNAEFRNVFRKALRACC
UniProt P41145: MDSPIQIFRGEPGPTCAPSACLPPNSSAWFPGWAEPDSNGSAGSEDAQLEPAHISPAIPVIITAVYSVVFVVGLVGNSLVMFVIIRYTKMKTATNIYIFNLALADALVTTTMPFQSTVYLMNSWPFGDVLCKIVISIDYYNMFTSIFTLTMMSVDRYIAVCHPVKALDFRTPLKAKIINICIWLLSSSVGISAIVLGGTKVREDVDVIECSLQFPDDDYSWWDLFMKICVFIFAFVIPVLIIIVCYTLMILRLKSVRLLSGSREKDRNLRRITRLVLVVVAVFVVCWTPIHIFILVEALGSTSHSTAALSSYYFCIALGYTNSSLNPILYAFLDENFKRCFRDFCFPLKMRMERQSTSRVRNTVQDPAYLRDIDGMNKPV
UniProt P25105: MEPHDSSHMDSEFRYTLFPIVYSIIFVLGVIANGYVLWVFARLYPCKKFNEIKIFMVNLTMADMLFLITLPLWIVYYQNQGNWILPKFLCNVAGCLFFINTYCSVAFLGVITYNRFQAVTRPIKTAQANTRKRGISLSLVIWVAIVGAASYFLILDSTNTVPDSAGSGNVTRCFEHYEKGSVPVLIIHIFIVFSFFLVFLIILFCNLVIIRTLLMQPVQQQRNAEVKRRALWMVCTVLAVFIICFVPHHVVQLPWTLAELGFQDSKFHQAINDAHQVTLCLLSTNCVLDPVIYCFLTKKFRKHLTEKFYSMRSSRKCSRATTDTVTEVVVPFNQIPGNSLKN
UniProt P47901: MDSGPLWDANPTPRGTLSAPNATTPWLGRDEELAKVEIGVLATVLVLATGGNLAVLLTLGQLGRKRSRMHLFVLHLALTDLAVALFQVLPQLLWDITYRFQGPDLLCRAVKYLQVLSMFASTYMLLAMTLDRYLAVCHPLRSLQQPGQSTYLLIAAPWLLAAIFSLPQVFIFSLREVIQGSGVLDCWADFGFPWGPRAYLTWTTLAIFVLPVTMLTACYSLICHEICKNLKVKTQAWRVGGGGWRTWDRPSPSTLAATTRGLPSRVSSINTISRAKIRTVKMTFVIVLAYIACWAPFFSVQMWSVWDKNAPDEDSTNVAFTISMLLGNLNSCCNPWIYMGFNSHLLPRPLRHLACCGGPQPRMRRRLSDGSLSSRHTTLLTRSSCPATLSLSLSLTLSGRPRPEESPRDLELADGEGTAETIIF

Key:
[1] = biological target: Oxytocin receptor (Homo sapiens) (UniProt P30559); assay: Displacement of [3H]-oxytocin from Oxytocin receptor (unknown origin) at 10 uM relative to control
[2] = biological target: Acetylcholinesterase (Homo sapiens) (UniProt P22303); assay: Inhibition of acetylcholinesterase (unknown origin); conditions: concentration not given here
[3] = biological target: Vasoactive intestinal polypeptide receptor 1 (Homo sapiens) (UniProt P32241); assay: Displacement of [125I]VIP from human recombinant VPAC1 receptor at 10 uM after 60 mins by scintillation counting analysis relative to control
[4] = biological target: Glutamate receptor ionotropic, AMPA (Rattus norvegicus) (UniProt P19491+P19492+P19493+P19490); assay: Displacement of [3H]AMPA from rat brain AMPA receptor at 10 uM after 60 mins by scintillation counting method relative to control
Homo sapiens [5] = species: Homo sapiens; assay: Displacement of [3H]nociceptin from human recombinant NOP receptor at 10 uM after 60 mins by scintillation counting analysis relative to control
[6] = biological target: Beta-1 adrenergic receptor (Homo sapiens) (UniProt P08588); assay: Displacement of [3H](-)CGP 12177 from human adrenergic beta1 receptor at 10 uM after 60 mins by scintillation counting analysis relative to control
Homo sapiens [7] = species: Homo sapiens; assay: Displacement of [3H]diltiazem from L-type calcium channel diltiazem binding site (unknown origin) at 10 uM by radioligand binding assay relative to control
[8] = biological target: Substance-K receptor (Homo sapiens) (UniProt P21452); assay: Displacement of [125I]NKA from human recombinant NK2 receptor at 10 uM after 60 mins by scintillation counting analysis relative to control
[9] = biological target: Neuronal acetylcholine receptor subunit alpha-7 (Homo sapiens) (UniProt P36544); assay: Displacement of [125I]alpha-Btx from nicotinic acetylcholine receptor alpha7 (unknown origin) at 10 uM relative to control; conditions: filed as antagonist
[10] = biological target: Muscarinic acetylcholine receptor M2 (Homo sapiens) (UniProt P08172); assay: Displacement of [3H]AF-DX 384 from human recombinant M2 receptor at 10 uM after 60 mins by scintillation counting analysis relative to control
[11] = biological target: Choline O-acetyltransferase (Homo sapiens) (UniProt P28329); assay: Inhibition of choline acetyl transferase (unknown origin); conditions: concentration not given here
[12] = biological target: Endothelin receptor type B (Homo sapiens) (UniProt P24530); assay: Displacement of [125I]endothelin-1 from human recombinant endothelin ETB receptor at 10 uM after 120 mins by scintillation counting analysis relative to control
[13] = biological target: Adenosine receptor A2b (Homo sapiens) (UniProt P29275); assay: Displacement of [3H]- CPX from adenosine A2B receptor (unknown origin) at 10 uM by scintillation counting analysis relative to control
Homo sapiens [14] = species: Homo sapiens; assay: Displacement of [3H]-Strychnine from glycine receptor (unknown origin) at 10 uM relative to control
[15] = biological target: Bone morphogenetic protein 1 (Homo sapiens) (UniProt P13497); assay: Displacement of [3H]TCP from PCP (unknown origin) at 10 uM after 60 mins by scintillation counting method relative to control
Homo sapiens [16] = species: Homo sapiens; assay: Displacement of [3H]-MDL 105519 from glycine receptor (unknown origin) at 10 uM relative to control
[17] = biological target: D(4) dopamine receptor (Homo sapiens) (UniProt P21917); assay: Displacement of [3H]-methylspiperone from dopamine D4 receptor (unknown origin) at 10 uM relative to control
[18] = biological target: Delta-type opioid receptor (Homo sapiens) (UniProt P41143); assay: Displacement of [3H]DADLE from human recombinant Delta opioid receptor at 10 uM after 60 mins by scintillation counting analysis relative to control; conditions: filed as antagonist
[19] = biological target: Metabotropic glutamate receptor 1 (Homo sapiens) (UniProt Q13255); assay: Displacement of [3H]quisqualate from mGluR1 (unknown origin) at 10 uM relative to control
[20] = biological target: Kappa-type opioid receptor (Homo sapiens) (UniProt P41145); assay: Displacement of [3H]U69593 from human kappa receptor at 10 uM after 60 mins by scintillation counting analysis relative to control
[21] = biological target: Platelet-activating factor receptor (Homo sapiens) (UniProt P25105); assay: Displacement of [3H]C18-PAF from PAFR (unknown origin) at 10 uM by scintillation counting analysis relative to control
[22] = biological target: Vasoactive intestinal polypeptide receptor 2 (Homo sapiens) (UniProt P41587); assay: Displacement of [125I]VIP from VPAC2 receptor (unknown origin) at 10 uM by scintillation counting analysis relative to control
[23] = biological target: Nitric oxide synthase 1 (Homo sapiens) (UniProt P29475); assay: Inhibition of NOS (unknown origin); conditions: concentration not given here
[24] = biological target: Glucocorticoid receptor (Homo sapiens) (UniProt P04150); assay: Displacement of [3H]dexamethasone from human glucocorticoid receptor at 10 uM after 360 mins by scintillation counting method relative to control
[25] = biological target: Metabotropic glutamate receptor 5 (Homo sapiens) (UniProt P41594); assay: Displacement of [3H]quisqualate from mGluR5 (unknown origin) at 10 uM relative to control
Rattus norvegicus = species: Rattus norvegicus; assay: Displacement of [3H]kainic acid from rat kainate receptor at 10 uM by radioligand binding assay relative to control
[26] = biological target: Cannabinoid receptor 1 (Homo sapiens) (UniProt P21554); assay: Displacement of [3H]CP 55940 from recombinant human CB1 receptor at 10 uM after 30 mins by scintillation counting method relative to control
[27] = biological target: Vasopressin V1b receptor (Homo sapiens) (UniProt P47901); assay: Displacement of [3H]AVP from V1b receptor (unknown origin) at 10 uM by scintillation counting analysis relative to control
[28] = biological target: Neuronal acetylcholine receptor; alpha4/beta2 (Homo sapiens) (UniProt P17787+P43681); assay: Displacement of [3H]cytisine from recombinant human alpha4beta2 nAChR at 10 uM after 120 mins by scintillation counting method relative to control

Compound: C[C@H](O)[C@H]1NC(=O)[C@@H]2NC(=O)[C@@H](NC(=O)CN)CSSC[C@H](NC(=O)[C@H](CCCNC(=N)N)NC(=O)[C@@H]3CCCN3C(=O)[C@H](CC(O)O)NC1=O)C(=O)N[C@@H](CCCNC(=N)N)C(=O)N[C@@H](Cc1ccc(O)c(I)c1)C(=O)N[C@@H](CCC(N)=O)C(=O)N[C@H](C(=O)N[C@H](CC(=O)N[C@@H](CCCNC(=N)N)C(=O)O)Cc1ccc(O)cc1)CSCS2
- Activity [1]: -12%
- inhibition [2]: 8.9%
- Activity [3]: -5.7%
- Activity [4]: 0.8%
- Activity (Homo sapiens [5]): -2.6%
- Activity [6]: 18.3%
- Activity (Homo sapiens [7]): -20.3%
- Activity [8]: 6%
- Activity [9]: 41.1%
- Activity [10]: -8.5%
- inhibition [11]: 2.2%
- Activity [12]: -35.6%
- Activity [13]: -8.6%
- Activity (Homo sapiens [14]): 22.1%
- Activity [15]: -9.5%
- Activity (Homo sapiens [16]): -13.4%
- Activity [17]: 17%
- Activity [18]: 41.6%
- Activity [19]: -36.2%
- Activity [20]: 0.6%
- Activity [21]: 3.8%
- Activity [22]: 0.2%
- inhibition [23]: 12%
- Activity [24]: -2.9%
- Activity [25]: -25.4%
- Activity (Rattus norvegicus): 22.4%
- Activity [26]: -0.4%
- Activity [27]: -0.6%
- Activity [28]: -4.7%
